Test results from article PMC10998906, “Triple tandem trimer immunogens for HIV-1 and influenza nucleic acid-based vaccines” (2024).

Biological target: H1 GCN4 (NL09 HA, GCN4-trimerized) (influenza A virus A/Netherlands/602/2009(H1N1))
Experiment: negative-stain EM

H1 GCN4 (NL09 HA, GCN4-trimerized) (domain or fragment)
stoichiometry N: 3
